Results of unrelated studies side by side (data: NIAID ChemDB).

Common to all: growth or infection tests; agent: Mycobacterium tuberculosis

Blank or dashed fields: not listed here.

structure,method,read-out,cells,strain or isolate,tested at,value
N#CC(Nc1cc(F)ccc1F)c1ccc(OCc2nc3ccccc3[nH]2)cc1,resazurin,inhibition,-,H37Rv,6.25 µg/mL,98%
c1ccc(OCc2nnc(CCON=C(c3ccccc3)c3ccccc3)o2)cc1,-,inhibition,-,-,12.5 µg/mL,7–56%
CC1(C)N=C(N)N=C(N)N1c1ccc(Cl)cc1,-,MIC,-,H37Rv,-,64 µg/mL
O=C(C[C@H](NC(=O)OCc1ccccc1)C(=O)NC1Cc2ccccc2OC1=O)OCc1ccccc1,resazurin,inhibition,-,H37Rv,6.25 µg/mL,24%
O=c1[nH]c2ccccc2c(=O)n1-c1ccc(Br)cc1,-,MIC,-,My 331/88,-,>500 µM
N#Cc1c(-c2ccc(F)cc2)c([N+](=O)[O-])c2ccccn12,agar,MIC,-,H37Rv,-,5.5 µM
Cn1c2c(c3nc(N)nc(N)c3c1=O)CCc1ccccc1-2,BACTEC,inhibition,-,H37Rv,12.5 µg/mL,48%
Cc1cc(C)[n+]2[nH]c(C(=O)NS(=O)(=O)c3ccccc3CF)nc2n1,broth dilution,MIC,-,-,-,<0.25 µg/mL
CC(=O)/C(N=Nc1ccc(C(=O)N/N=C/c2ccc(F)cc2)cc1)=C(\C)O,-,MIC,-,H37Rv,-,>12.5 µg/mL
COc1cccc(/C=N/NC(=O)Cc2csc3nc(-c4ccccc4)cn23)c1,-,inhibition,-,H37Rv,12.5 µg/mL,47%
CN(C)CC=C(c1ccc(Br)cc1)c1ccc(-c2ccc(Br)cc2)cc1,-,MIC,-,ALI 3415,-,34 µg/mL
COc1ccc(-c2cc(-c3ccc4oc(=O)c(-c5ccccc5)c(C)c4c3)nc3c2oc2ccccc23)cc1OC,agar / visual reading,MIC,-,H37Rv,-,62.5 µg/mL
CN(C)C/C=C(/c1ccc(Br)cc1)c1ccc(-c2ccc(Br)cc2)cc1,-,MIC,-,H37Rv,-,8.5 µg/mL
Cc1ccc(-c2cc(-c3ccc4oc(=O)c(-c5ccccc5)c(C)c4c3)nc3c2Cc2ccccc2-3)cc1,agar / visual reading,inhibition,-,H37Rv,250 µg/mL,51%
CCc1nc2ccc(NCCN(C)C)c3c(=O)c4ccccc4n1c23,BACTEC,MIC,VERO,H37Rv,-,6.25 µg/mL
CN(C)C/C=C(/c1ccc(-c2ccc(Br)cc2)cc1)c1ccc(S(C)(=O)=O)cc1,-,MIC,-,H37Ra,-,68 µg/mL
CCC12OC3(CC)C4C(=O)OC1C1(CC)OC4(CC)C3C(=O)OC21,BACTEC,MIC bound,-,H37Rv,-,>12.5 µg/mL
C[C@H](CCC(=O)O)[C@H]1CC[C@H]2[C@@H]3CC[C@@H]4C[C@H](O)CC[C@]4(C)[C@H]3C[C@H](O)[C@]12C,-,MIC,-,-,-,>1000 µM
COc1ccc2[nH]c3c(C)c4ccn5c(=O)c6ccccc6cc5c4c(C)c3c2c1,BACTEC,MIC,-,H37Rv,-,≥12.5 µg/mL
CC(=O)Nc1ccc(/C=N/NC(N)=S)cc1F,-,MIC,-,Isoniazid-resistant,-,≤0.1 µg/mL
COc1cccc(NC(=O)CC(=O)NNCC(=O)Nc2nnc(-c3ccc(N(CCC#N)S(=O)(=O)c4ccccc4)cc3)s2)c1,BACTEC,MIC bound,-,H37Rv,-,>12.5 µg/mL
CCOC(=O)c1c(-c2ccc(Cl)cc2)cc2c3ccccc3ccn12,agar,MIC,-,H37Rv,-,3.9 µM
CCCCCCCCCCCCCCCCCCC(CC)C(=O)O,-,MIC,-,-,-,>1000 µM
N#CC(Nc1ccc(Cl)cc1)c1ccc(OCc2nc3ccccc3[nH]2)cc1,resazurin,inhibition,-,H37Rv,6.25 µg/mL,90%
Cc1ccc(-c2c([N+](=O)[O-])c3c4ccccc4ccn3c2C#N)cc1,agar,MIC,-,H37Rv,-,9.6 µM
COc1cc2c(oc(=O)c3cc(C)cc(OC)c32)c2c(C3OC(C)C(O)C(C)(O)C3O)ccc(O)c12,-,MIC,-,TAC-R,-,3.1 µg/mL
COc1ccc(-c2c([N+](=O)[O-])c3ccccn3c2C#N)cc1,agar,MIC,-,H37Rv,-,85 µM
O=c1nc2c(ncn2Cc2ccccc2)c(-c2cccs2)n1Cc1ccccc1,-,EC50,-,H37Rv,-,>12.5 µg/mL
CC12CC(=O)OC(C1)C(=O)c1ccccc12,BACTEC,inhibition,-,H37Rv,12.5 µg/mL,22%
CN(C)C/C=C(\c1ccc(Cl)cc1)c1ccc(-c2ccc(Br)cc2)cc1,-,MIC,-,ALI 258,-,≤5 µg/mL
S=C(S)NCCNC(=S)S,BACTEC,MIC,-,H37Rv,-,≥12.5 µg/mL
CN(C)c1ccc(/C=C/C/C=N/NC(=O)c2ccc(N)cc2)cc1,-,EC50,-,H37Rv,-,<12.5 µg/mL
N#CC12C3C4C5C3C1C(C42)n1c(=O)n(-c2ccccc2)c(=O)n15,resazurin,MIC bound,-,H37Rv,-,>6.25 µg/mL
CC(C)c1ccc(-c2c([N+](=O)[O-])c3ccccn3c2C#N)cc1,agar,MIC,-,H37Rv,-,40.9 µM
NCCCCCCCCCCCCN,-,MIC,-,H37Rv,-,2.5 µg/mL
CC(C)(CO)[C@@H](O)C(=O)NCCC(=O)O,BACTEC,inhibition,-,H37Rv,12.5 µg/mL,17%
N#CC(Nc1ccccc1Cl)c1ccc(OCc2nc3ccccc3[nH]2)cc1,resazurin,MIC,-,H37Rv,-,6.25 µg/mL
Cc1c(-c2ccccc2)c(=O)oc2ccc(-c3cc(-c4ccccc4)c4c(n3)-c3ccccc3CC4)cc12,agar / visual reading,inhibition,-,H37Rv,250 µg/mL,27%
COc1c(O)cc2oc3cc(O)c(CC=C(C)C)c(O)c3c(=O)c2c1CC=C(C)C,-,MIC,-,PAS-R,-,12.8 µg/mL
N#CC(Nc1ccccc1[N+](=O)[O-])c1ccc(OCc2nc3ccccc3[nH]2)cc1,resazurin,inhibition,-,H37Rv,6.25 µg/mL,68%
[C-]#[N+][C@]12C(=C)C(C)(C)c3[nH]c4cccc5c4c3[C@]1(O)[C@H](CC[C@]2(C)C=C)C5(C)C,resazurin,MIC90,-,H37Rv,-,>100 µM
COc1ccc(-c2cc(-c3ccc4oc(=O)c(-c5ccccc5)c(C)c4c3)nc3c2CCc2ccccc2-3)cc1,agar / visual reading,inhibition,-,H37Rv,250 µg/mL,47%
O=c1nc2c(ncn2Cc2ccccc2)c(C#Cc2ccccc2)n1Cc1ccccc1,-,EC50,VERO,H37Rv,-,<12.5 µg/mL
Cc1cc(C)nc(NS(=O)(=O)c2ccc(N)cc2)n1,-,MIC,-,H37Rv,-,64 µg/mL
Cc1c(-c2ccccc2)c(=O)oc2ccc(-c3cc(-c4ccc(Cl)cc4)c4c(n3)-c3ccccc3CC4)cc12,agar / visual reading,inhibition,-,H37Rv,250 µg/mL,44%
NCC[C@H](O)C(=O)N[C@@H]1C[C@H](N)[C@@H](O[C@H]2O[C@H](CN)[C@@H](O)[C@H](O)[C@H]2O)[C@H](O)[C@H]1O[C@H]1O[C@H](CO)[C@@H](O)[C@H](N)[C@H]1O,-,MIC50,-,30 isolates/HIV+,-,64 µg/mL
COc1ccc(-c2cc(-c3ccc4oc(=O)c(-c5ccccc5)c(C)c4c3)nc3c2Cc2ccccc2-3)cc1,agar / visual reading,inhibition,-,H37Rv,250 µg/mL,35%
O=c1oc2ccccc2c(=O)n1-c1ccc(Cl)c(Cl)c1,-,MIC,-,My 331/88,-,8 µM
NCCCCCCCCCN,-,MIC,-,H37Rv,-,3.12 µg/mL
COc1ccc(-c2cc(-c3ccc4oc(=O)c(-c5ccccc5)c(C)c4c3)nc3c2Cc2ccccc2-3)cc1OC,agar / visual reading,inhibition,-,H37Rv,250 µg/mL,65%
CCCc1cc(-c2nc(-c3ccncc3)cs2)ccn1,turbidity,MIC80,-,H37Rv,-,1.4 µg/mL
Nc1ccccc1C(=O)Nc1cccc([N+](=O)[O-])c1,-,MIC,-,My 331/88,-,500 µM
C[C@H](O)[C@H]1/C=C/C=C\C(=O)O[C@@H]2C[C@H]3O[C@@H]4[C@@H]5O[C@]5(C)CC[C@]4(COC(=O)[C@H]4O[C@]4(C)[C@@H](O)CO1)[C@]2(C)[C@]31CO1,BACTEC,MIC,-,H37Rv,-,≥12.5 µg/mL
O=C(Nc1ccc(Cl)cc1)c1ccccc1O,-,MIC,-,My 331/88,-,31 µM
Cc1ccc(Nc2c(C#N)[n+]([O-])c3cc(Cl)ccc3[n+]2[O-])cc1,-,EC50,-,H37Rv,-,<12.5 µg/mL
O=C(CC1OC(O)C(Cl)=C1Cl)c1cccnc1,BACTEC,MIC bound,-,H37Rv,-,>12.5 µg/mL
CN(C)C/C=C(/c1ccccc1)c1ccc(-c2ccc(Br)cc2)cc1,-,MIC,-,ALI 282,-,≤5 µg/mL
O=c1oc2ccccc2c(=O)n1-c1ccccc1,-,MIC,-,My 331/88,-,125 µM
c1ccc(C(=NOCc2nnc(-c3ccccc3)o2)c2ccccc2)cc1,-,inhibition,-,-,12.5 µg/mL,7–56%
CN(C)C/C=C(\c1ccc(N)cc1)c1ccc(-c2ccc(Br)cc2)cc1,-,MIC,-,ALI 258,-,19.5 µg/mL
Cc1ccc(-c2cc(-c3ccc4oc(=O)c(-c5ccccc5)c(C)c4c3)nc3c2oc2ccccc23)cc1,agar / visual reading,MIC,-,H37Rv,-,125 µg/mL
O=C(CCn1[nH]c(=O)c(Cl)c(Cl)c1=O)NNc1ccc([N+](=O)[O-])cc1[N+](=O)[O-],BACTEC,MIC bound,-,H37Rv,-,>12.5 µg/mL
CC(C)=CCC[C@H](C)CCOCCCCCC(=O)O,-,MIC,-,-,-,>1000 µM
N#Cc1c(-c2ccc(Cl)cc2)c([N+](=O)[O-])c2c3ccccc3ccn12,agar,MIC,-,H37Rv,-,9 µM
C/C(=N\OCc1nnc(Nc2ccc(Br)cc2)o1)c1ccccc1,-,inhibition,-,-,12.5 µg/mL,7–56%
COC1CC2CCC(C)C(O)(O2)C(=O)C(=O)N2CCCCC2C(=O)OC(C(C)CC2CCC(O)C(OC)C2)CC(=O)C(C)C=C(C)C(OC(=O)CN(C)C)C(OC)C(=O)C(C)CC(C)\C=C/C=C\C=C/1C,BACTEC,inhibition,-,H37Rv,12.5 µg/mL,45%
C/C(=N\OCCc1nnc(COc2ccccc2)o1)c1ccccc1,-,inhibition,-,-,12.5 µg/mL,7–56%
O=c1ssc(Cl)c1Cl,BACTEC,MIC bound,-,H37Rv,-,>12.5 µg/mL
O=c1oc2ccccc2c(=O)n1-c1ccc(Br)cc1,-,MIC,-,My 331/88,-,31 µM
C=C[C@]1(C)C2=C3c4c([nH]c5cccc(c45)C(C)(C)[C@H]3C[C@H]1Cl)C(C)(C)C(C#N)=C2,resazurin,MIC90,-,H37Rv,-,53.7 µM
CN(C)CCCN1c2ccccc2Sc2ccc(Cl)cc21,-,MIC,-,23296,-,10 µg/mL
C=C1C(=O)[C@@]23C[C@@H]1C[C@H](O)[C@@H]2C1(CCC[C@@](C)(COC(C)=O)C1C=O)COC3=O,BACTEC,inhibition,-,H37Rv,12.5 µg/mL,9%
CCOC(=O)c1c(-c2ccccc2)cc2c3ccccc3ccn12,agar,MIC,-,H37Rv,-,17.3 µM
CC(=O)/C(N=Nc1ccc(C(=O)N/N=C/C=C/c2ccc(N(C)C)cc2)cc1)=C(\C)O,-,MIC,-,H37Rv,-,>12.5 µg/mL
CCOC(=O)c1c(-c2ccc(OC)cc2)cc2c3ccccc3ccn12,agar,MIC,-,H37Rv,-,16 µM
c1ccc(OCc2nnc(CON=C(c3ccccc3)c3ccccc3)o2)cc1,-,inhibition,-,-,12.5 µg/mL,7–56%
N#CC(Nc1ccccc1F)c1ccc(OCc2nc3ccccc3[nH]2)cc1,resazurin,inhibition,-,H37Rv,6.25 µg/mL,92%
C/C(=N\OCc1nnc(N2CCCCC2)o1)c1ccccc1,-,inhibition,-,-,12.5 µg/mL,7–56%
Cc1ccc(-n2c(=O)[nH]c3ccccc3c2=O)cc1C,-,MIC,-,My 331/88,-,500 µM
Cc1cc(-c2ccc(N=Nc3c(N)c(C)cc(S(=O)(=O)[O-])c3N)c(C)c2)ccc1N=Nc1ccc([O-])c(C(=O)O)c1.[Na+].[Na+],BACTEC,MIC bound,-,H37Rv,-,>12.5 µg/mL
C=CCNc1nnc(CO/N=C(\C)c2ccccc2)o1,-,inhibition,-,-,12.5 µg/mL,7–56%
O=c1[nH]c2ccccc2c(=O)n1-c1ccccc1,-,MIC,-,My 331/88,-,>500 µM
CC[C@H]1OC(=O)[C@H](C)[C@@H](O[C@H]2C[C@@](C)(OC)[C@@H](O)[C@H](C)O2)[C@H](C)[C@@H](O[C@@H]2O[C@H](C)C[C@H](N(C)C)[C@H]2O)[C@](C)(O)C[C@@H](C)CN(C)[C@H](C)[C@@H](O)[C@]1(C)O,-,MIC50,-,30 isolates/HIV+,-,>8 µg/mL
O=P1(c2ccccc2)Nc2cc(Cl)c(Cl)cc2N1,BACTEC,inhibition,-,H37Rv,12.5 µg/mL,34%
Cc1c(-c2ccccc2)c(=O)oc2ccc(-c3cc(-c4ccc(F)cc4)c4oc5ccccc5c4n3)cc12,agar / visual reading,inhibition,-,H37Rv,250 µg/mL,62%
Cc1cc(-c2cc3c(cc2F)c(=O)c(C(=O)O)cn3C2CC2)cc(C)n1,-,MIC,-,483-8,-,0.5 µg/mL

ECn is the concentration giving n% inhibition of infection, replication or growth. MIC50, MIC90 and the like: level of inhibition, or share of isolates inhibited. Inhibition is in % at the dose shown (toxicity tests: loss of growth or viability). Lines come from different laboratories, so protocols vary. MIC bound: limit read from a one-dose screen. a–b is a range or a potency band.